Measurements taken from the CheMixHub viscosity set.

Test: xn = mol fraction of the nth substance listed
Settings: 101 kPa

CC[N+]1(C)CCCC1.O=S(=O)(F)[N-]S(=O)(=O)F + O=S(=O)(F)[N-]S(=O)(=O)F.[Na+]
viscosity (303 K, x2 = 0.5): 779 ± 220 mPa·s
viscosity (303 K, x2 = 0.7): 5830 ± 2800 mPa·s
viscosity (313 K, x2 = 0.6): 959 ± 290 mPa·s
viscosity (323 K, x2 = 0.6): 495 ± 120 mPa·s

± gives the uncertainty stated by the source.
